In PubChem BioAssay AID1508601 (ICCB-Longwood Screening Facility, Harvard Medical School, 2020):
The list shows a part of the results, in another mix than the full data. Calls of active or inactive are those of the source. Cut-off read from the data, not from the text of the source: active = p53-positive nuclei above about 36% (passing the limit was not always enough); inactive = the rest.

Chains of the proteins cited; added tags and fusions are not shown.
UniProt P04637, whole entry: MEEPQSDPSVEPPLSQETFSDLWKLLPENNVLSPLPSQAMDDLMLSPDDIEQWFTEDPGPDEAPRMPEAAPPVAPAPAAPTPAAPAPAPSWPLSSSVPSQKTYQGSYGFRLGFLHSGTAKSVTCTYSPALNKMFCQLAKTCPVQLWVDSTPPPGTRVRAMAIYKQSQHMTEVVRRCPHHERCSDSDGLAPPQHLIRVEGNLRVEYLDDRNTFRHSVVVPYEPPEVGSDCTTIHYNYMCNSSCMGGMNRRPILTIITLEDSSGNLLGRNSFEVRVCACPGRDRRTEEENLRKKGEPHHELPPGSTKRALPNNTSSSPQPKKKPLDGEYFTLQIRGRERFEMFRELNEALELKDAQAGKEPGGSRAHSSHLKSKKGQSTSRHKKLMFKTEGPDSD

The compounds below were run against Cellular tumor antigen p53 (Homo sapiens) (UniProt P04637) (assay: nuclear p53 accumulation, HPV+ cells – imaging, p53-positive nuclei imaging, 24 h, 48 h (AID 1508601)). Details: 24/48 h, stronger effect = higher value, concentration not given here.

| Compound | p53-positive nuclei, normalised |
| --- | --- |
| OCCSCCO | inactive: 0.11% |
